# Reference: PMC6328579, “Post-exposure immunotherapy for two ebolaviruses and Marburg virus in nonhuman primates” (Nature Communications, 2019)
# B1: FVM04 (antibody, V domains shown)
# VH: EVQLVQSGGGLVQPGGSMRLSCEASGLSLSDYFMHWVRQAQGKGLEWIGLIQTKAFTYKTEYPAAVKGRFTISRDDSKNTLYLQMSSLKPEDTALYYCIAVTPDFYYWGQGVLVTVSS
# VL: DVVMTQSPSFLSASVGDRVTITCRASQDITINLNWFQHKPGKAPKRLIYVASRLERGVPSRFSGSGSGTEFTLTISSLQPEDFATYYCQQYNNYPLTFGPGTKLDIK
# Biological target: BDBV GPΔTM (Bundibugyo virus (BDBV))
# Test: ELISA
# Details: both partners purified
binder,measurement,value
B1,binding result,binds
